According to EP0408973B1 (BIO-MEGA/BOEHRINGER INGELHEIM RESEARCH INC., priority 1989, dated 1991):

Assay: general procedure: Boc solid-phase peptide synthesis; BHA-photoresin, [4-(2-chloropropionyl)phenoxy]acetamidomethyl-copoly(styrene-1% divinylbenzene) resin; BOP/HOBt
Conditions: late stage modification step, analytical HPLC

Row | Substance | final HPLC purity
1 | PEPTIDE1{[PhPrCO].[NMeVal].I.N.D.[LeuTet]}$$$$V2.0 | 90% pure
2 | PEPTIDE1{[PhPrCO].[NMeVal].I.[TetAla].D.L}$$$$V2.0 | 100% pure

Some peptides are written in HELM: one residue between dots, names in brackets for other building blocks, links after the first $.
